Pooled drug test results. Numbers come from NIAID ChemDB, via PubChem.

Common to all: growth or infection tests

A number after MIC or MFC names an inhibition level or a share of isolates. Two numbers with a dash give a range or band. An empty or dashed field is not shown. Inhibition is in % at the dose shown (toxicity tests: loss of growth or viability). Neighbouring rows are from separate reports.

structure | organism | strain or isolate | read by | endpoint | tested at | value
CCc1nc2ccc(Cl)cn2c1C(=O)NCc1ccc(C2CCN(c3ccc(OC(F)(F)F)cc3)[C@@H](C)C2)c(F)c1.Cl | Mycobacterium avium |  | fluorescence | inhibition | 0.0062 µM | 85%
CO[C@@]1(NC(=O)C(C(=O)O)c2ccc(O)cc2)C(=O)N2C(C(=O)O)=C(CSc3nnnn3C)CO[C@@H]21 | Mycobacterium fortuitum | 1004-8 |  | MIC |  | >100 µg/mL
CO[C@H]1/C=C/O[C@@]2(C)Oc3c(C)c(O)c4c(O)c(c5c(c4c3C2=O)NC2(CCN(CC(C)C)CC2)N=5)=NC(=O)/C(C)=C\C=C\[C@H](C)[C@H](O)[C@@H](C)[C@@H](O)[C@@H](C)[C@H](OC(C)=O)[C@@H]1C | Mycobacterium avium intracellulare | 21 strains |  | MIC50 |  | 0.25 µg/mL
CC[C@H]1OC(=O)[C@H](C)[C@@H](OC2C[C@@](C)(OC)[C@@H](OC(=O)CCCc3ccccc3)[C@H](C)O2)[C@H](C)[C@@H](O[C@@H]2O[C@H](C)C[C@H](N(C)C)[C@H]2O)C(C)(O)C[C@@H](C)/C(=N\OCCCOc2ccccc2)[C@H](C)[C@@H](O)[C@]1(C)O | Mycobacterium avium complex | 20039 (clarithromycin-susceptible) |  | MIC |  | 0.78 µg/mL
CO[C@@]1(NC(=O)Cc2ccccc2)C(=O)N2C(C(=O)[O-])=C(CSc3nnc(C)s3)CSC21 | Mycobacterium fortuitum | 1047 |  | MIC |  | 100 µg/mL
Cc1ccc2nc(C)c(C(=O)NCc3ccc(-c4ccc(Cl)cc4)cc3)n2c1 | Mycobacterium ulcerans |  | fluorescence | MIC50 |  | 0.001–0.01 µg/mL
COc1ccn2nc(C)c(C(=O)NCc3ccc(N4CCN(c5ccc(OC(F)(F)F)cc5)[C@@H](C)C4)c(F)c3)c2c1.Cl | Mycobacterium avium |  | fluorescence | inhibition | 0.0052 µM | 85%
CC[C@H]1OC(=O)[C@H](C)[C@@H](O[C@H]2C[C@@](C)(OC)[C@@H](OC(C)=O)[C@H](C)O2)[C@H](C)[C@@H](O[C@@H]2O[C@H](C)C[C@H](N(C)C)[C@H]2O)C(C)(O)C[C@@H](C)/C(=N\OCCc2cccs2)[C@H](C)[C@@H](O)[C@]1(C)O | Mycobacterium avium complex | 20096 (clarithromycin-resistant) |  | MIC |  | 12.5 µg/mL
CCOc1ccc(N2CCN(c3ccc(CNC(=O)c4c(CC)nc5ccc(Cl)cn45)c(F)c3)C[C@@H]2C)c(F)c1.Cl | Mycobacterium avium |  | fluorescence | inhibition | 0.47 µM | 85%
CCc1nc2ccc(Cl)cn2c1C(=O)NCc1ccc(N2CCC(c3ccc(OC(F)(F)F)cc3)CC2)cc1 | Mycobacterium ulcerans |  | fluorescence | MIC50 |  | <0.001 µg/mL
CC[C@H]1OC(=O)[C@H](C)[C@@H](OC2C[C@@](C)(OC)[C@@H](O)[C@H](C)O2)[C@H](C)[C@@H](O[C@@H]2O[C@H](C)C[C@H](N(C)C)[C@H]2O)C(C)(OC)C[C@@H](C)/C(=N\OCCCOc2ccccc2)[C@H](C)[C@@H](O)[C@]1(C)O | Mycobacterium avium complex | 20039 (clarithromycin-susceptible) |  | MIC |  | 1.56 µg/mL
Cc1cc2nc(C)c(C(=O)NCc3ccc(N4CCN(c5ccc(OC(F)(F)F)cc5)[C@@H](C)C4)c(F)c3)n2cc1Cl | Mycobacterium avium |  | fluorescence | inhibition | 0.033 µM | 85%
CC[C@H]1OC(=O)[C@H](C)[C@@H](OC2C[C@@](C)(OC)[C@@H](OC(=O)Cc3ccccc3)[C@H](C)O2)[C@H](C)[C@@H](O[C@@H]2O[C@H](C)C[C@H](N(C)C)[C@H]2O)C(C)(O)C[C@@H](C)/C(=N\OCCCOc2ccccc2)[C@H](C)[C@@H](O)[C@]1(C)O | Mycobacterium avium complex | 20096 (clarithromycin-resistant) |  | MIC |  | 3.13 µg/mL
Cc1nc2ccc(F)cn2c1C(=O)NCc1ccc(C2CCN(c3ccc(OC(F)(F)F)cc3)CC2)c(F)c1 | Mycobacterium avium |  | fluorescence | inhibition | 0.011 µM | 85%
CC1(C)N=C(N)N=C(N)N1OCCCOc1cc(Cl)c(Cl)cc1Cl | Mycobacterium avium complex | 4304-4 |  | MIC |  | 1 µg/mL
O=C(NCc1ccc(N2CCCC2)nc1)c1c(Cl)nc2ccccn12 | Mycobacterium ulcerans |  | fluorescence | MIC50 |  | 1–10 µg/mL
CCCCCCCCO/N=C1\[C@H](C)CC(C)(O)[C@H](O[C@@H]2O[C@H](C)C[C@H](N(C)C)[C@H]2O)[C@@H](C)[C@H](OC2C[C@@](C)(OC)[C@@H](O)[C@H](C)O2)[C@@H](C)C(=O)O[C@H](CC)[C@@](C)(O)[C@H](O)[C@H]1C | Mycobacterium avium complex | 20096 (clarithromycin-resistant) |  | MIC |  | 6.25 µg/mL
CO[C@@]1(NC(=O)Cc2cccs2)C(=O)N2C(C(=O)O)=C(COC(N)=O)CS[C@@H]21 | Mycobacterium fortuitum | 1049 |  | MIC |  | 12.5 µg/mL
Cc1nc2ccc(F)cn2c1C(=O)NCc1ccc(N2CCN(c3ccc(OC(F)(F)F)cc3)[C@@H](C)C2)cc1 | Mycobacterium avium |  | fluorescence | inhibition | 0.015 µM | 85%
C[C@@H](O)[C@H]1C(=O)N2C(C(=O)O)=C(SCCN=CN)C[C@H]12 | Mycobacterium fortuitum | 1048 |  | MIC |  | 3.12 µg/mL
COc1ccn2nc(C)c(C(=O)NCc3ccc(N4CCC(c5ccc(OC(F)(F)F)cc5)CC4)c(Cl)c3)c2c1.Cl | Mycobacterium avium |  | fluorescence | inhibition | 0.018 µM | 85%
Cc1nc2ccccn2c1C(=O)NCC1CCCCCC1 | Mycobacterium ulcerans |  | fluorescence | MIC50 |  | 1–10 µg/mL
CC[C@H]1OC(=O)[C@H](C)[C@@H](OC2C[C@@](C)(OC)[C@@H](O)[C@H](C)O2)[C@H](C)[C@@H](O[C@@H]2O[C@H](C)C[C@H](N(C)C)[C@H]2O)C(C)(O)C[C@@H](C)/C(=N\OCCCC2CCCCC2)[C@H](C)[C@@H](O)[C@]1(C)O | Mycobacterium avium complex | 20096 (clarithromycin-resistant) |  | MIC |  | 6.25 µg/mL
CO[C@@]1(NC(=O)CSCC#N)C(=O)N2C(C(=O)O)=C(CSc3nnnn3C)CS[C@@H]21 | Mycobacterium fortuitum | 1045 |  | MIC |  | 50 µg/mL
CCc1nc2ccc(Cl)cn2c1C(=O)NCc1ccc(N2C[C@H](C)N(c3ccc(OC(F)(F)F)cc3)C[C@H]2C)c(F)c1 | Mycobacterium avium |  | fluorescence | inhibition | 0.011 µM | 85%
Nc1ccc(S(=O)(=O)c2ccc(N)cc2)cc1 | Mycobacterium avium complex | ATCC49601 |  | MIC |  | 64 µg/mL
CCc1nc2ccc(Cl)cn2c1C(=O)NCc1ccc(N2CCN(c3ccc(OC(C)C)cc3)C(C)(C)C2)c(F)c1 | Mycobacterium avium |  | fluorescence | inhibition | 0.012 µM | 85%
CC[C@H]1OC(=O)[C@H](C)[C@@H](O[C@H]2C[C@@](C)(OC)[C@@H](OC(C)=O)[C@H](C)O2)[C@H](C)[C@@H](O[C@@H]2O[C@H](C)C[C@H](N(C)C)[C@H]2OC(=O)NN(C)Cc2ccccc2)C(C)(O)C[C@@H](C)/C(=N\OCCCC2CCCCC2)[C@H](C)[C@@H](O)[C@]1(C)O | Mycobacterium avium complex | 20039 (clarithromycin-susceptible) |  | MIC |  | 3.13 µg/mL

A second listing of 4 rows from above:

structure	organism	strain or isolate	read by	endpoint	tested at	value
CC[C@H]1OC(=O)[C@H](C)[C@@H](OC2C[C@@](C)(OC)[C@@H](O)[C@H](C)O2)[C@H](C)[C@@H](O[C@@H]2O[C@H](C)C[C@H](N(C)C)[C@H]2O)C(C)(O)C[C@@H](C)/C(=N\OCCCC2CCCCC2)[C@H](C)[C@@H](O)[C@]1(C)O	Mycobacterium avium complex	20096 (clarithromycin-resistant)		MIC		6.25 µg/mL
CCc1nc2ccc(Cl)cn2c1C(=O)NCc1ccc(N2C[C@H](C)N(c3ccc(OC(F)(F)F)cc3)C[C@H]2C)c(F)c1	Mycobacterium avium		fluorescence	inhibition	0.011 µM	85%
CCc1nc2ccc(Cl)cn2c1C(=O)NCc1ccc(N2CCN(c3ccc(OC(C)C)cc3)C(C)(C)C2)c(F)c1	Mycobacterium avium		fluorescence	inhibition	0.012 µM	85%
CCOc1ccc(N2CCN(c3ccc(CNC(=O)c4c(CC)nc5ccc(Cl)cn45)c(F)c3)C[C@@H]2C)c(F)c1.Cl	Mycobacterium avium		fluorescence	inhibition	0.47 µM	85%